Anti-infective test results gathered from many reports (values: NIAID ChemDB through PubChem).

Shared fields: toxicity to cultured cells; cells: MT-4; read-out: CC50

Blank or dashed fields: not listed here. Rows are shuffled and stem from different studies. CCn: concentration that lowers growth or viability of the cells by n%.

| compound | read by | result |
|---|---|---|
| C[C@H]1CC[C@@]2(CC(C#CC(C)(C)S(C)(=O)=O)=NO2)[C@H]2CN1C(=O)c1c(O)c(=O)c(C(=O)NCc3c(F)cc(F)cc3F)cn12 | luminescence | 50 µM |
| COc1ccc([C@H]2C[C@H]2CSc2nc([C@@H](C)c3c(F)cccc3F)c(C)c(=O)[nH]2)cc1 | MTT | 47.17 µM |
| N#Cc1cc(Cl)cc(Oc2cc(Cl)cc(OCC(=O)Nc3ccc(C(N)=O)cc3Cl)c2)c1 | microscopy | >20 µM |
| O=C(O[C@@H]1O[C@@H]2COC(=O)c3cc(O)c(O)c(O)c3-c3c(cc(O)c(O)c3O)C(=O)O[C@H]2[C@H](OC(=O)c2cc(O)c(O)c(O)c2)[C@H]1OC(=O)c1cc(O)c(O)c(O)c1Oc1cc2c(c(O)c1O)Oc1cc(cc(O)c1O)C(=O)O[C@@H]1O[C@@H]3COC(=O)c4cc(O)c(O)c(O)c4-c4c(cc(O)c(O)c4O)C(=O)O[C@H]3[C@H](OC(=O)c3cc(O)c(O)c(O)c3)[C@H]1OC2=O)c1cc(O)c(O)c(O)c1 |  | 58.6 µg/mL |
| CCc1c(Cc2cc(C)cc(C)c2)n(COCC#Cc2cccc(C#N)c2)c(=O)[nH]c1=O | MTT | 39 µM |
| N#Cc1cc(Cl)cc(Oc2cc(Cl)cc(OCC(=O)Nc3ccc4[nH]cnc4c3Cl)c2)c1 | microscopy | >20 µM |
| O=C(OC1OC2COC(=O)c3cc(O)c(O)c(O)c3-c3c(cc(O)c(O)c3O)C(=O)OC2C(OC(=O)c2cc(O)c(O)c(O)c2)C1OC(=O)c1cc(O)c(O)c(O)c1)c1cc(O)c(O)c(Oc2c(C(=O)OC3OC4COC(=O)c5cc(O)c(O)c(O)c5-c5c(cc(O)c(O)c5O)C(=O)OC4C4OC(=O)c5cc(O)c(O)c(O)c5-c5c(cc(O)c(O)c5O)C(=O)OC34)cc(O)c(O)c2O)c1 |  | 19.8 µg/mL |
| Nc1nc2nc(-c3ccccn3)c(-c3ccccn3)nc2c(=O)[nH]1 | MTT / absorbance | 105.7 µM |
| O=C1O[C@H]2[C@H]3OC(=O)c4cc(O)c(O)c(O)c4-c4c(cc(Oc5c(C(=O)O[C@@H]6O[C@@H]7COC(=O)c8cc(O)c(O)c(O)c8-c8c(cc(O)c(O)c8O)C(=O)O[C@H]7[C@H](OC(=O)c7cc(O)c(O)c(O)c7)[C@H]6OC(=O)c6cc(O)c(O)c(O)c6)cc(O)c(O)c5O)c(O)c4O)C(=O)OC[C@H]2O[C@H](OC(=O)c2cc(O)c(O)c(O)c2)[C@H]3OC(=O)c2cc(O)c(O)c3c2C2C1=CC(=O)C(O)(O)C2(O)O3 |  | 37.4 µg/mL |
| N#Cc1cc(Cl)cc(Oc2cc(OCC(=O)Nc3ccc(S(N)(=O)=O)cc3Cl)ccc2Cl)c1 | microscopy | >20 µM |
| O=C1O[C@@H]2O[C@@H]3COC(=O)c4cc(O)c(O)c(O)c4-c4c(cc(O)c(O)c4O)C(=O)O[C@H]3[C@H](OC(=O)c3cc(O)c(O)c(O)c3)[C@H]2OC(=O)c2cc(Oc3c(C(=O)O[C@H]4[C@H](OC(=O)c5cc(O)c(O)c(O)c5)O[C@H](CO)[C@@H](O)[C@@H]4OC(=O)c4cc(O)c(O)c(O)c4)cc(O)c(O)c3O)c(O)c(O)c2Oc2cc1cc(O)c2O |  | 59 µg/mL |
| N#Cc1cc(Cl)cc(Oc2cc(Cl)cc(OCc3nc4cccc(Cl)c4s3)c2)c1 | microscopy | >20 µM |
| O=C1O[C@@H]2O[C@@H]3COC(=O)c4cc(O)c(O)c(O)c4-c4c(cc(O)c(O)c4O)C(=O)O[C@H]3[C@H](OC(=O)c3cc(O)c(O)c(O)c3)[C@H]2OC(=O)c2cc(O)c(O)c(O)c2Oc2cc(cc(O)c2O)C(=O)O[C@@H]2O[C@@H]3COC(=O)c4cc(O)c(O)c(O)c4-c4c(cc(O)c(O)c4O)C(=O)O[C@H]3[C@H](OC(=O)c3cc(O)c(O)c(O)c3)[C@H]2OC(=O)c2cc(O)c(O)c(O)c2Oc2c(O)cc1cc2O |  | 39.9 µg/mL |
| N#Cc1cc(Cl)cc(Oc2cc(OCc3[nH]nc4nc(N5CCC5)ccc34)ccc2Cl)c1 | microscopy | >20 µM |
| CCc1c(Cc2cc(C)cc(C)c2)n(COCC#Cc2cccc(CO)c2)c(=O)[nH]c1=O | MTT | 34 µM |
| C[C@H]1CC[C@]2(CC(=O)N(Cc3nc4ccccc4s3)O2)[C@H]2CN1C(=O)c1c(O)c(=O)c(C(=O)NCc3c(F)cc(F)cc3F)cn12 | luminescence | 50 µM |
| CCc1c(Cc2ccccc2C)n(COCC#Cc2ccccc2)c(=O)[nH]c1=O | MTT | 26 µM |
| N#CSc1ccc2nc(N)sc2c1 | MTT | 26 µM |
| Cc1ccnc2c1NC(=O)c1cccnc1N2C1CC1 | MTT / absorbance | >4 µM |
| C[C@H]1CC[C@]2(CC(=O)N(C)C2)[C@H]2CN1C(=O)c1c(O)c(=O)c(C(=O)NCc3c(F)cc(F)cc3F)cn12 | luminescence | 50 µM |
| CCc1c(C)[nH]c(=O)c(N(C)C)c1Cc1cc(C)cc(C)c1 |  | >1 µM |
| S=c1[nH]c(=S)c2nc(-c3ccccn3)c(-c3ccccn3)nc2[nH]1 | MTT / absorbance | 93.23 µM |
| CCc1c(Cc2cc(C)cc(C)c2)n(COCc2cn(-c3cccnc3)nn2)c(=O)[nH]c1=O | MTT | >100 µM |
| Nc1nc(=S)c2nc(-c3ccccn3)c(-c3ccccn3)nc2[nH]1 | MTT / absorbance | 47.64 µM |
| CCCCCCN(CCCCCC)c1ccc(/C=C2/SC(=O)N(CC(=O)Nc3nc4ccc(SC#N)cc4s3)C2=O)cc1 | MTT | 39 µM |
| Cn1c2ccccc2c2c1cc(C#N)c(=O)n2-c1ccc([N+](=O)[O-])cc1 | MTT | >32 µM |
| O=C[C@H](OC(=O)c1cc(O)c(O)c(O)c1)[C@@H](OC(=O)c1cc(O)c(O)c(O)c1)[C@@H]1OC(=O)c2cc(O)c(O)c(O)c2-c2c(cc(Oc3c(C(=O)O[C@@H]4O[C@@H]5COC(=O)c6cc(O)c(O)c(O)c6-c6c(cc(O)c(O)c6O)C(=O)O[C@H]5[C@H](OC(=O)c5cc(O)c(O)c(O)c5)[C@H]4OC(=O)c4cc(O)c(O)c(O)c4)cc(O)c(O)c3O)c(O)c2O)C(=O)OC[C@H]1O |  | 30.6 µg/mL |
| N#CSc1ccc2nc(NC(=O)CN3C(=O)S/C(=C/c4ccccc4)C3=O)sc2c1 | MTT | 73 µM |
| C[C@H]1CC[C@@]2(CNC(=O)C2)[C@H]2CN1C(=O)c1c(O)c(=O)c(C(=O)NCc3c(F)cc(F)cc3F)cn12 | luminescence | 50 µM |
| CS(=O)(=O)c1ccc2c(c1)CCN2C(=O)COc1cc(Cl)cc(Oc2cc(Cl)cc(C#N)c2)c1 | microscopy | >20 µM |
| CC1=NO[C@]2(CC[C@H](C)N3C[C@H]2n2cc(C(=O)NCc4c(F)cc(F)cc4F)c(=O)c(O)c2C3=O)C1 | luminescence | 50 µM |
| COc1ccc([C@@H]2C[C@@H]2CSc2nc([C@H](C)c3c(F)cccc3F)c(C)c(=O)[nH]2)cc1 | MTT | >56.25 µM |
| N#CSc1ccc2nc(NC(=O)CCl)sc2c1 | MTT | 8 µM |
| O=C1O[C@H]2[C@@H](OC(=O)c3cc(O)c(O)c(O)c3)[C@H](OC(=O)c3cc(O)c(O)c4c3C3C1=CC(=O)C(O)(O4)C3(O)O)[C@@H]1OC(=O)c3cc(O)c(O)c(O)c3-c3c(cc(O)c(O)c3O)C(O)OC[C@H]2O1 |  | 18.3 µg/mL |
| CCc1c(Cc2cc(C)cc(C)c2)n(COCC#Cc2ccc(O)cc2)c(=O)[nH]c1=O | MTT | 20 µM |
| N#Cc1cc(Cl)cc(Oc2cc(Cl)cc(OCC(=O)NCC3CCS(=O)(=O)C3)c2)c1 | microscopy | >20 µM |
| COc1ccc([C@H]2C[C@H]2CSc2nc([C@H](C)c3c(F)cccc3F)c(C)c(=O)[nH]2)cc1 | MTT | 14.64 µM |
| C[C@H]1CC[C@]2(CC(=O)NO2)[C@H]2CN1C(=O)c1c(O)c(=O)c(C(=O)NCc3ccc(F)cc3F)cn12 | luminescence | 50 µM |
| O=C(O[C@@H]1[C@H](c2c(O)cc(O)c3c2O[C@H](c2ccc(O)c(O)c2)[C@H](OC(=O)c2cc(O)c(O)c(O)c2)C3)c2c(O)cc(O)c([C@H]3c4c(O)cc(O)c([C@@H]5c6c(O)cc(O)cc6O[C@H](c6ccc(O)c(O)c6)[C@@H]5OC(=O)c5cc(O)c(O)c(O)c5)c4O[C@H](c4ccc(O)c(O)c4)[C@@H]3OC(=O)c3cc(O)c(O)c(O)c3)c2O[C@@H]1c1ccc(O)c(O)c1)c1cc(O)c(O)c(O)c1 |  | 55.5 µg/mL |
| CCc1c(Cc2cc(C)cc(C)c2)n(COCC#Cc2cccc(O[Si](c3ccccc3)(c3ccccc3)C(C)(C)C)c2)c(=O)[nH]c1=O | MTT | >100 µM |
| O=c1[nH]c(=S)[nH]c2nc(-c3ccccn3)c(-c3ccccn3)nc12 | MTT / absorbance | 79.23 µM |
| CS(=O)(=O)c1ccc(NC(=O)COc2cc(Cl)cc(Oc3cc(Cl)cc(C#N)c3)c2)c(Cl)c1 | microscopy | >20 µM |
| COc1cc(/C=C2/SC(=O)N(CC(=O)Nc3nc4ccc(SC#N)cc4s3)C2=O)ccc1O | MTT | >100 µM |
| COc1ccc(C(=O)CSc2nc3nc(C4=CCC=C=N4)c(-c4ccccn4)nc3c(=O)[nH]2)cc1 | MTT / absorbance | 36.1 µM |
| C[C@H]1CC[C@@]2(CN(C)C(=O)O2)[C@H]2CN1C(=O)c1c(O)c(=O)c(C(=O)NCc3c(F)cc(F)cc3F)cn12 | luminescence | 50 µM |
| NC1N=CNc2nc(-c3ccccn3)c(-c3ccccn3)nc21 | MTT / absorbance | 12.1 µM |
| CC1=NO[C@]2(CC[C@H](C)N3C[C@H]2n2cc(C(=O)NCc4ccc(F)cc4F)c(=O)c(O)c2C3=O)C1 | luminescence | 50 µM |
| N#CSc1ccc2nc(NC(=O)CN3C(=O)S/C(=C/c4cccc(-c5ccco5)c4)C3=O)sc2c1 | MTT | >100 µM |

The last 5 rows once more:

{"compound": "COc1ccc(C(=O)CSc2nc3nc(C4=CCC=C=N4)c(-c4ccccn4)nc3c(=O)[nH]2)cc1", "read by": "MTT / absorbance", "result": "36.1 µM"}
{"compound": "C[C@H]1CC[C@@]2(CN(C)C(=O)O2)[C@H]2CN1C(=O)c1c(O)c(=O)c(C(=O)NCc3c(F)cc(F)cc3F)cn12", "read by": "luminescence", "result": "50 µM"}
{"compound": "NC1N=CNc2nc(-c3ccccn3)c(-c3ccccn3)nc21", "read by": "MTT / absorbance", "result": "12.1 µM"}
{"compound": "CC1=NO[C@]2(CC[C@H](C)N3C[C@H]2n2cc(C(=O)NCc4ccc(F)cc4F)c(=O)c(O)c2C3=O)C1", "read by": "luminescence", "result": "50 µM"}
{"compound": "N#CSc1ccc2nc(NC(=O)CN3C(=O)S/C(=C/c4cccc(-c5ccco5)c4)C3=O)sc2c1", "read by": "MTT", "result": ">100 µM"}